# From US10207006B2, “Oligosaccharide conjugates and methods of use” (priority 2013, dated 2019)
# System: anti-Brucella antibodies in bovine sera
# Assay type: binding, cattle
smiles,measurement,value
CO[C@H]1OC(C)[C@@H](NC=O)C(O)C1O[C@H]1OC(C)[C@@H](NC=O)C(O[C@H]2OC(C)[C@@H](NC=O)C(O)C2O[C@H](C=O)OC(C)[C@H](C=O)NC=O)C1O (stereo partly shown) [oxiTSM],DSn % (diagnostic sensitivity at optimal Youden Index),73.33%
same,DSp % (diagnostic specificity at optimal Youden Index),92.65%
same,"Optimal Youden Index (YI = DSn + DSp-1), YI Estimate",0.6670
same,"ROC - Area Under Curve, AUC",0.8948
